# Patent US7601358B2, “Mycobacterium tuberculosis protein composition” (priority 2006, dated 2009)
# B1: DesA3: Mycobacterium tuberculosis desaturase DesA3 (Rv3229c), SEQ ID NO: 10 (protein, listed as Mycobacterium tuberculosis)
# chain: MAITDVDVFAHLTDADIENLAAELDAIRRDVEESRGERDARYIRRTIAAQRALEVSGRLLLAGSSRRLAWWTGALTLGVAKIIENMEIGHNVMHGQWDWMNDPEIHSSTWEWDMSGSSKHWRYTHNFVHHKYTNILGMDDDVGYGMLRVTRDQRWKRYNIFNVVWNTILAIGFEWGVALQHLEIGKIFKGRADREAAKTRLREFSAKAGRQVFKDYVAFPALTSLSPGATYRSTLTANVVANVIRNVWSNAVIFCGHFPDGAEKFTKTDMIGEPKGQWYLRQMLGSANFNAGPALRFMSGNLCHQIEHHLYPDLPSNRLHEISVRVREVCDRYDLPYTTGSFLVQYGKTWRTLAKLSLPDKYLRDNADDAPETRSERMFAGLGPGFAGADPVTGRRRGLKTAIAAVRGRRRSKRMAKSVTEPDDLAAKLHHHHHH
# System: OLE1 deficient yeast strain L8-14C
# Assay type: cell-based, Saccharomyces cerevisiae
# Settings: OLE1 deficient yeast L8-14C, galactose medium, absence of unsaturated fatty acids; plus grades not defined
molecule,measurement,value
B1,In vivo activity,None without Rv32320c
